Measurements reported in US20250154457A1, “T-CELLS FOR ANTI-HIV CAR-T THERAPY AND METHODS OF USE” (City of Hope, priority 2021, published 2025).

System: 8e5.GFP
Settings: 6TG treated vs non-treated enrichment anti-HIV CAR T-cells, n=3

**Q.** How did the cytotoxicity turn out when `Nc1nc2nc[nH]c2c(=S)[nH]1` [6TG, 6-thioguanine] was run?
**A.** no difference in cytotoxicity
